PubChem BioAssay AID1259414 – Drosophila RNAi Screening Center – 2018

- Screen: 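Host factors increasing or decreasing Wolbachia levels in cultured fly cells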 (primary screen)
- Cell system: Drosophila JW18 cells infected with Wolbachia
- Reagent: long dsRNA against Drosophila genes, 0.25 µg dsRNA per well of a 384-well plate
- Duration: 5 days
- Challenge: cells persistently infected with Wolbachia before knock-down; no added drug
- Detection: 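Imaged fluorescence in situ signal for Wolbachia 23S rRNA per DAPI-counted host cell, given as a robust z-score within each plate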
- Reading the numbers: Wolbachia per cell robust z: higher = more Wolbachia per host cell than the plate typical
- Call rule: 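Hit when robust z is 1.5 or more, or -1.5 or less, in at least two of three replicates; excludes dsRNAs with several or no targets, genes not expressed in JW18 and well A1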
In all, the deposit lists about 24,000 reagents; below is an unselected part of those with a known target gene and a result. Over the whole deposit, about 1,210 (5%) were called active. 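Inactive calls also include excluded dsRNAs with several or no targets, genes unexpressed in JW18, and well A1, regardless of score.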 Entries without a mark were called inactive.

With knock-down of CG31370 [DRSC21453], the screen gave Wolbachia per cell robust z, rep 1 = 0.695; Wolbachia per cell robust z, rep 2 = 0.489; Wolbachia per cell robust z, rep 3 = -1.3. Depletion of CG5388 [DRSC15789] came out at: Wolbachia per cell robust z, rep 1 = 0.753; Wolbachia per cell robust z, rep 2 = 0.688; Wolbachia per cell robust z, rep 3 = 0.191. Nap1 (Nucleosome assembly protein 1) [DRSC04626] showed Wolbachia per cell robust z, rep 1 = 0.999; Wolbachia per cell robust z, rep 2 = 0.186; Wolbachia per cell robust z, rep 3 = 0.807. U2af38 (U2 small nuclear riboprotein auxiliary factor 38) [DRSC00796] gave Wolbachia per cell robust z, rep 1 = 0.567; Wolbachia per cell robust z, rep 2 = -7.21; Wolbachia per cell robust z, rep 3 = 2.44. Depletion of U2af38 (U2 small nuclear riboprotein auxiliary factor 38) [DRSC28068] resulted in: Wolbachia per cell robust z, rep 1 = 0.715; Wolbachia per cell robust z, rep 2 = 1.36; Wolbachia per cell robust z, rep 3 = 2.52. Depletion of myo (myoglianin) [DRSC17174] came out at: Wolbachia per cell robust z, rep 1 = 0.33; Wolbachia per cell robust z, rep 2 = -0.549; Wolbachia per cell robust z, rep 3 = 0.214.

gish (gilgamesh) [DRSC16154] scored Wolbachia per cell robust z, rep 1 = -3.14; Wolbachia per cell robust z, rep 2 = -0.864; Wolbachia per cell robust z, rep 3 = 2.11. For gish (gilgamesh) [DRSC40750], the values are Wolbachia per cell robust z, rep 1 = -0.662; Wolbachia per cell robust z, rep 2 = 0.282; Wolbachia per cell robust z, rep 3 = 0.124. Against CG13305 [DRSC24957], the values are Wolbachia per cell robust z, rep 1 = -0.127; Wolbachia per cell robust z, rep 2 = 0.52; Wolbachia per cell robust z, rep 3 = 0.821. Depletion of Sr-CIV (Scavenger receptor class C, type IV) [DRSC00575] gave: Wolbachia per cell robust z, rep 1 = -0.642; Wolbachia per cell robust z, rep 2 = -0.814; Wolbachia per cell robust z, rep 3 = -1.42. After knock-down of Sr-CIV (Scavenger receptor class C, type IV) [DRSC24930] the results were Wolbachia per cell robust z, rep 1 = 0.166; Wolbachia per cell robust z, rep 2 = 0.523; Wolbachia per cell robust z, rep 3 = 2.21. CG34443 [DRSC29357] gave Wolbachia per cell robust z, rep 1 = 2; Wolbachia per cell robust z, rep 2 = 0.688; Wolbachia per cell robust z, rep 3 = 1.55.

Sorted by “Wolbachia per cell robust z, rep 3” (descending): 2 of the entries above.
gish (gilgamesh) [DRSC16154]: Wolbachia per cell robust z, rep 1 = -3.14; Wolbachia per cell robust z, rep 2 = -0.864; Wolbachia per cell robust z, rep 3 = 2.11
myo (myoglianin) [DRSC17174]: Wolbachia per cell robust z, rep 1 = 0.33; Wolbachia per cell robust z, rep 2 = -0.549; Wolbachia per cell robust z, rep 3 = 0.214
